# In ChEMBL document CHEMBL3621085, “Tetrazole regioisomers in the development of nitro group-containing antitubercular agents” (Medchemcomm, 2015):
# Key:
# Assay type in all cases: functional
# Mycobacterium avium [1] = assay: Antimycobacterial activity against Mycobacterium avium My 330/88 after 14 days by micromethod
# [2] = test system: Mycobacterium tuberculosis; assay: Antimycobacterial activity against Mycobacterium tuberculosis My 331/88 after 21 days by micromethod
# [3] = test system: Mycobacterium tuberculosis; assay: Antimycobacterial activity against Mycobacterium tuberculosis My 331/88 after 14 days by micromethod
# Mycobacterium kansasii [4] = assay: Antimycobacterial activity against Mycobacterium kansasii 6509/96 after 7 days by micromethod
# Mycobacterium kansasii [5] = assay: Antimycobacterial activity against Mycobacterium kansasii 6509/96 after 14 days by micromethod
# Mycobacterium kansasii [6] = assay: Antimycobacterial activity against Mycobacterium kansasii My 235/80 after 21 days by micromethod
# Mycobacterium kansasii [7] = assay: Antimycobacterial activity against Mycobacterium kansasii My 235/80 after 7 days by micromethod
# Mycobacterium avium [8] = assay: Antimycobacterial activity against Mycobacterium avium My 330/88 after 21 days by micromethod
# Mycobacterium kansasii [9] = assay: Antimycobacterial activity against Mycobacterium kansasii My 235/80 after 14 days by micromethod
# Mycobacterium kansasii [10] = assay: Antimycobacterial activity against Mycobacterium kansasii 6509/96 after 21 days by micromethod
structure (smiles),measurement,setting,value
O=[N+]([O-])c1ccc(C[Se]c2nnnn2Cc2ccc([N+](=O)[O-])cc2[N+](=O)[O-])cc1,MIC,Mycobacterium avium [1],16 µM
same,MIC,[2],4 µM
same,MIC,[3],2 µM
same,MIC,Mycobacterium kansasii [4],32 µM
same,MIC,Mycobacterium kansasii [5],62 µM
same,MIC,Mycobacterium kansasii [6],62 µM
same,MIC,Mycobacterium kansasii [7],32 µM
same,MIC,Mycobacterium avium [8],32 µM
same,MIC,Mycobacterium kansasii [9],62 µM
same,MIC,Mycobacterium kansasii [10],62 µM
O=[N+]([O-])c1cc(Cn2nnnc2SCc2ccc([N+](=O)[O-])cc2[N+](=O)[O-])cc([N+](=O)[O-])c1,MIC,Mycobacterium avium [1],16 µM
same,MIC,[2],4 µM
same,MIC,[3],4 µM
same,MIC,Mycobacterium kansasii [4],16 µM
same,MIC,Mycobacterium kansasii [5],32 µM
same,MIC,Mycobacterium kansasii [6],62 µM
same,MIC,Mycobacterium kansasii [7],32 µM
same,MIC,Mycobacterium avium [8],32 µM
same,MIC,Mycobacterium kansasii [9],62 µM
same,MIC,Mycobacterium kansasii [10],62 µM
O=[N+]([O-])c1cc(Cn2nnnc2[Se]Cc2ccc([N+](=O)[O-])cc2[N+](=O)[O-])cc([N+](=O)[O-])c1,MIC,Mycobacterium avium [1],250 µM
same,MIC,[2],16 µM
same,MIC,[3],16 µM
same,MIC,Mycobacterium kansasii [4],32 µM
same,MIC,Mycobacterium kansasii [5],62 µM
same,MIC,Mycobacterium kansasii [6],62 µM
same,MIC,Mycobacterium kansasii [7],16 µM
same,MIC,Mycobacterium avium [8],250 µM
same,MIC,Mycobacterium kansasii [9],32 µM
same,MIC,Mycobacterium kansasii [10],62 µM
O=[N+]([O-])c1ccc(C[Se]c2nnn(Cc3ccc([N+](=O)[O-])cc3[N+](=O)[O-])n2)c([N+](=O)[O-])c1,MIC,Mycobacterium avium [1],16 µM
same,MIC,[2],4 µM
same,MIC,[3],2 µM
same,MIC,Mycobacterium kansasii [4],32 µM
same,MIC,Mycobacterium kansasii [5],62 µM
same,MIC,Mycobacterium kansasii [6],62 µM
same,MIC,Mycobacterium kansasii [7],16 µM
same,MIC,Mycobacterium avium [8],32 µM
same,MIC,Mycobacterium kansasii [9],32 µM
same,MIC,Mycobacterium kansasii [10],62 µM
O=[N+]([O-])c1ccc(CSc2nnnn2Cc2cc([N+](=O)[O-])cc([N+](=O)[O-])c2)cc1,MIC,Mycobacterium avium [1],250 µM
same,MIC,[2],8 µM
same,MIC,[3],8 µM
same,MIC,Mycobacterium kansasii [4],16 µM
same,MIC,Mycobacterium kansasii [5],16 µM
same,MIC,Mycobacterium kansasii [6],16 µM
same,MIC,Mycobacterium kansasii [7],4 µM
same,MIC,Mycobacterium avium [8],250 µM
same,MIC,Mycobacterium kansasii [9],8 µM
same,MIC,Mycobacterium kansasii [10],32 µM
O=[N+]([O-])c1ccc(C[Se]c2nnn(Cc3ccc([N+](=O)[O-])cc3[N+](=O)[O-])n2)cc1,MIC,Mycobacterium avium [1],8 µM
same,MIC,[2],2 µM
same,MIC,[3],2 µM
same,MIC,Mycobacterium kansasii [4],2 µM
same,MIC,Mycobacterium kansasii [5],4 µM
same,MIC,Mycobacterium kansasii [6],2 µM
same,MIC,Mycobacterium kansasii [7],1 µM
same,MIC,Mycobacterium avium [8],16 µM
same,MIC,Mycobacterium kansasii [9],2 µM
same,MIC,Mycobacterium kansasii [10],8 µM
O=[N+]([O-])c1cc(Cn2nnc(SCc3ccc([N+](=O)[O-])cc3[N+](=O)[O-])n2)cc([N+](=O)[O-])c1,MIC,Mycobacterium avium [1],250 µM
same,MIC,[2],4 µM
same,MIC,[3],4 µM
same,MIC,Mycobacterium kansasii [4],8 µM
same,MIC,Mycobacterium kansasii [5],16 µM
same,MIC,Mycobacterium kansasii [6],32 µM
same,MIC,Mycobacterium kansasii [7],4 µM
same,MIC,Mycobacterium avium [8],250 µM
same,MIC,Mycobacterium kansasii [9],16 µM
same,MIC,Mycobacterium kansasii [10],16 µM
O=[N+]([O-])c1ccc(Cn2nnnc2SCc2cc([N+](=O)[O-])cc([N+](=O)[O-])c2)cc1,MIC,Mycobacterium avium [1],250 µM
same,MIC,[2],4 µM
same,MIC,[3],2 µM
same,MIC,Mycobacterium kansasii [4],2 µM
same,MIC,Mycobacterium kansasii [5],8 µM
same,MIC,Mycobacterium kansasii [6],4 µM
same,MIC,Mycobacterium kansasii [7],1 µM
same,MIC,Mycobacterium avium [8],250 µM
same,MIC,Mycobacterium kansasii [9],4 µM
same,MIC,Mycobacterium kansasii [10],16 µM
O=[N+]([O-])c1cc(C[Se]c2nnn(Cc3cc([N+](=O)[O-])cc([N+](=O)[O-])c3)n2)cc([N+](=O)[O-])c1,MIC,Mycobacterium avium [1],125 µM
same,MIC,[2],1 µM
same,MIC,[3],1 µM
same,MIC,Mycobacterium kansasii [4],2 µM
same,MIC,Mycobacterium kansasii [5],4 µM
same,MIC,Mycobacterium kansasii [6],8 µM
same,MIC,Mycobacterium kansasii [7],2 µM
same,MIC,Mycobacterium avium [8],125 µM
same,MIC,Mycobacterium kansasii [9],4 µM
same,MIC,Mycobacterium kansasii [10],8 µM
O=[N+]([O-])c1ccc(Cn2nnc([Se]Cc3ccc([N+](=O)[O-])cc3[N+](=O)[O-])n2)cc1,MIC,Mycobacterium avium [1],125 µM
same,MIC,[2],32 µM
same,MIC,[3],32 µM
same,MIC,Mycobacterium kansasii [4],32 µM
same,MIC,Mycobacterium kansasii [5],62 µM
same,MIC,Mycobacterium kansasii [6],32 µM
same,MIC,Mycobacterium kansasii [7],16 µM
same,MIC,Mycobacterium avium [8],125 µM
same,MIC,Mycobacterium kansasii [9],32 µM
same,MIC,Mycobacterium kansasii [10],62 µM
O=[N+]([O-])c1ccc(C[Se]c2nnnn2Cc2cc([N+](=O)[O-])cc([N+](=O)[O-])c2)cc1,MIC,Mycobacterium avium [1],250 µM
same,MIC,[2],8 µM
same,MIC,[3],8 µM
same,MIC,Mycobacterium kansasii [4],32 µM
same,MIC,Mycobacterium kansasii [5],32 µM
same,MIC,Mycobacterium kansasii [6],32 µM
same,MIC,Mycobacterium kansasii [7],16 µM
same,MIC,Mycobacterium avium [8],250 µM
same,MIC,Mycobacterium kansasii [9],32 µM
same,MIC,Mycobacterium kansasii [10],62 µM
O=[N+]([O-])c1cc(C[Se]c2nnnn2Cc2cc([N+](=O)[O-])cc([N+](=O)[O-])c2)cc([N+](=O)[O-])c1,MIC,Mycobacterium avium [1],125 µM
same,MIC,[2],8 µM
same,MIC,[3],4 µM
same,MIC,Mycobacterium kansasii [4],16 µM
same,MIC,Mycobacterium kansasii [5],62 µM
same,MIC,Mycobacterium kansasii [6],62 µM
same,MIC,Mycobacterium kansasii [7],16 µM
same,MIC,Mycobacterium avium [8],125 µM
same,MIC,Mycobacterium kansasii [9],62 µM
same,MIC,Mycobacterium kansasii [10],62 µM
